According to patent US20230285442A1, “USE OF OLIGOCHITOSANS AND DERIVATIVES THEREOF FOR NEUTRALIZING VIRAL AGENTS” (priority 2020, published 2023):

Assays:
coxsackievirus = test: NCD1 neutralization (removal) of coxsackievirus from culture supernatant, RNA from supernatant; conditions: incubated with NCD1 at room temperature for 30 min, centrifuged; RNA from supernatant vs PBS control
RSV = test: NCD1 neutralization (removal) of RSV from culture supernatant, RNA from supernatant and pellet

Substance: Oligochitosan 10 kDa [NCD1]
- extent of removal of coxsackievirus from the culture supernatant (coxsackievirus): 95-99%
- extent of removal of RSV from the culture supernatant (RSV; incubated with NCD1 at room temperature for 30 min, centrifuged, RNA from supernatant vs PBS control): 95-99%
- total RNA from pellets representing complexes of NCD1 and RSV (RSV; pellet after centrifugation): viral RNA was recovered from the pellet
